# Percent effect of library compounds

The values are deposited in ChEMBL (CHEMBL3988442, “University of Dundee, Small-Polar-MMV Screening Library” (2021)).

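Growth of Mycobacterium tuberculosis over 3 days (7H9 medium with glucose and tyloxapol); the read-out is not stated. Compounds at 500 µM. Higher reads as more growth inhibition (inferred: compounds with an IC50 in retests scored well above the rest). Of about 18,000 compounds tested this way, about 1,400 (7.9%) reached 50% or more in at least one test.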

Results are given as percent effect.
The controls that fix the scale are not given in the record; negative values are as filed.
Many other results are left out here, so strong results are more common than in the screen.

| # | structure | percent effect |
|---|---|---|
| 1 | `NCc1ccc(C(=O)NCCN2CCCC2)cc1` | -8.209 |
| 2 | `CNCC1CCCN(C(=O)c2cc(F)ccc2C)C1` (stereo not drawn) | 6.998 |
| 3 | `CN(C)CCSc1nnnn1-c1ccccc1` | 21.16 |
| 4 | `Cc1nc(NC2CC2)sc1C(=O)NCc1ccncc1` | 16.5 |
| 5 | `NS(=O)(=O)c1csc2ccccc12` | 31.23 |
| 6 | `CCSCC(=O)N(C)Cc1nc(C(C)C)no1` | 16.75 |
| 7 | `CC(CC(N)=O)C(=O)NCCCc1ccc(Br)cc1F` (stereo not drawn) | 0.4974 |
| 8 | `CN(Cc1ccc(O)cc1)C(=O)c1cc(Cl)c[nH]1` | 85.06 |
| 9 | `COc1cc(CCC(=O)Nc2nnc[nH]2)cc(OC)c1` | -3.659 |
| 10 | `Cc1nc(CNC(=O)CC2=CCCCC2)no1` | 51.14 |
| 11 | `CN(C)C(CNc1ncccc1F)C1CC1` (stereo not drawn) | -3.032 |
| 12 | `CC1=CC(=O)N(Cc2ccccc2)C1=O` | 102.6 |
| 13 | `CCc1noc(Cn2cnc3ccccc3c2=O)n1` | 51.26 |
| 14 | `COc1ccc(NC(=O)C(C)(C)N(C)C)cc1` | -5.611 |
| 15 | `N#Cc1c(F)cccc1NCCN` | 13.02 |
| 16 | `Cc1nc(C(=O)NCC2(N(C)C)CCOCC2)cs1` | -4.648 |
| 17 | `COc1ccc(C(O)CNC(=O)Nc2nncs2)cc1` (stereo not drawn) | 79.52 |
| 18 | `CN(CC(N)=O)C(=O)c1csc(-c2ccc(F)cc2)n1` | -6.58 |
| 19 | `CCC(CC)C(CN)N(C)C` (stereo not drawn) | 75.06 |
| 20 | `OCc1cnc2c(F)cccc2c1` | 51.46 |
| 21 | `CC(C)CNc1cccc(-n2cnnn2)c1` | 70.88 |
| 22 | `Cc1ccc2c(c1)nc(CN)n2C` | 66.94 |
| 23 | `Cc1nc(CN2CCCNCC2)cs1` | 19.34 |
| 24 | `CCOc1ccc(C(=O)N2CCC(N)CC2)cc1` | 11.09 |
| 25 | `O=C(Nc1ccncc1)N(CCO)CC1CC1` | 19.86 |
| 26 | `Cc1ccc(S(=O)(=O)CC(=O)NCc2ccco2)cc1` | 36.25 |
| 27 | `CCC(CC)NC(=O)Nc1ccccc1CC(=O)NC` | 0.751 |
| 28 | `CNC(=O)COc1cccc(OCC2CC2)c1` | 62.2 |
| 29 | `CC(C)N(C)C(=O)Nc1cccnc1OCC(F)F` | 22.23 |
| 30 | `CN(CCCOc1cccc(Cl)c1)CC(N)=O` | 21 |
| 31 | `CC(C)NC(=O)c1ccc(N2CCCCC2=O)cc1` | 80.65 |
| 32 | `Cc1ccccc1CC(=O)NCCC1CCNC1` (stereo not drawn) | -4.549 |
| 33 | `NC(=O)CSc1nc(Cc2cccs2)n[nH]1` | 19.05 |
| 34 | `Cc1cnc(CCNC(=O)NCC(O)C2CC2)s1` (stereo not drawn) | -7.39 |
| 35 | `Cc1ccc2c(c1)CC(=O)N2C` | 4.351 |
| 36 | `Cn1cc(Br)c(CN2C(=O)c3ccccc3C2=O)n1` | 3.114 |
| 37 | `CNC(=O)C1(c2cccc(Cl)c2)CC1` | 2.802 |
| 38 | `OCc1c[nH]c2cccc(F)c12` | 23.9 |
| 39 | `CC(C)Oc1cccc(CN)c1` | 42.37 |
| 40 | `Cc1ccc(-n2nnnc2NCC2CCCO2)cc1` (stereo not drawn) | 61.03 |
| 41 | `CCCNc1nc(C)c(C(C)=O)s1` | 23.61 |
| 42 | `CC(=O)c1ccc(S(=O)(=O)NC(CN)C2CC2)cc1` (stereo not drawn) | 9.237 |
| 43 | `CC(C(N)=O)n1cccn1` (stereo not drawn) | 10.48 |
| 44 | `CC(Nc1ccc(C#N)cn1)c1ccc2c(c1)OCO2` (stereo not drawn) | 76.86 |
| 45 | `COCC(C)NC(=O)c1cncn1-c1ccc(F)cc1` (stereo not drawn) | -2.565 |
| 46 | `CCS(=O)(=O)c1cc(OC)c(OC)cc1C` | 21.99 |
| 47 | `CNC(=O)NC(=O)CCN1CCc2ccccc2C1` | 83.78 |
| 48 | `Cc1ccc(CNC(=O)c2cnn(C)c2)cc1F` | 60.28 |
| 49 | `Cc1nc(CSCC(=O)N2CCCC2)cs1` | 33.82 |
| 50 | `CN1CCCN(C(=O)c2cc3ccccc3[nH]2)CC1` | 15.14 |
| 51 | `CCN(c1ccc(C(=O)NC[C@H](C)O)cc1)C(C)C` | 38.59 |
| 52 | `CCN1CCOC(C(=O)NCCOC)C1` (stereo not drawn) | -6.583 |
| 53 | `CS(=O)(=O)CCNC(=O)CCN1CCCCCCC1` | 6.77 |
| 54 | `COCCNC(=O)CN(C)c1ccc(Br)cc1C#N` | -2.626 |
| 55 | `CSCC(=O)N1C[C@@H](CN2CCCCCC2)[C@@H](CO)C1` | -48.75 |
| 56 | `CCn1cc(CNC(=O)c2cccnc2SC)c(C)n1` | 22.29 |
| 57 | `CCc1ccc(C(=O)NC(C)C(N)=O)o1` (stereo not drawn) | 9.16 |
| 58 | `NC(=O)CCS(=O)(=O)CCN1CCOCC1` | 24.89 |
| 59 | `CSCCCN(C)C(=O)CN(C)S(C)(=O)=O` | 5.226 |
| 60 | `CCS(=O)(=O)N1CCC(C(C)NC)CC1` (stereo not drawn) | -2.329 |
| 61 | `NCc1cc(OC2CCC2)ccn1` | 20.23 |
| 62 | `COc1cc(CNn2cnnc2)ccc1OCC(N)=O` | 8.022 |
| 63 | `CCCn1c(O)nnc1SCc1cccc(OC)n1` | 57.05 |
| 64 | `CC(C)NC(=O)NC(C)c1ccccc1` (stereo not drawn) | -4.065 |
| 65 | `CC(=O)N(CC(=O)N1CCCCC1)c1ccc(C)cc1` | 16.04 |
| 66 | `NCCOc1cccnc1` | -3.816 |
| 67 | `CC(C)(C)OC(=O)N1CC2(CCC(CN)O2)C1` (stereo not drawn) | 67.7 |
| 68 | `CC(Cn1c(=O)[nH]c2ccccc2c1=O)N1CCCC1` (stereo not drawn) | 70.6 |
| 69 | `O=C(CSCc1ccccc1Cl)N1CCOCC(O)C1` (stereo not drawn) | 33.82 |
| 70 | `COc1cccc(C(=O)NC2CCN(C(C)C)CC2)c1` | 18.85 |
| 71 | `Cn1cc(Br)c(=O)c(NC(=O)c2ccoc2)c1` | -6.276 |
| 72 | `CN(C)C(=O)CN1CCCC1c1ccc(F)cc1` (stereo not drawn) | 66.6 |
| 73 | `Cc1cn(CCNC(=O)c2cc(CC(C)C)n[nH]2)nn1` | 12.21 |
| 74 | `Cc1ccc(C2CSCCN2)o1` (stereo not drawn) | -1.898 |
| 75 | `COc1ccc(-n2ccnc2SCC(=O)N(C)C)cc1` | 15.98 |
| 76 | `NCc1ccc(C(=O)Nc2ccncc2)cc1` | 21.12 |
| 77 | `Cc1cncc(C(=O)Nc2cc(O)cc(F)c2)c1` | 22.97 |
| 78 | `C1CC(c2nnc(CN3CCCC3)o2)C1` | 40.43 |
| 79 | `COc1ccnc2c1CCCC2N` (stereo not drawn) | 26.51 |
| 80 | `CC(C)OCc1cccc(NC(C)C(=O)NC(N)=O)c1` (stereo not drawn) | 24.73 |

For reference, 10 entries once more:

For Cn1cc(Br)c(=O)c(NC(=O)c2ccoc2)c1 the result was -6.276%.
For CC(C(N)=O)n1cccn1 (stereo not drawn) the result was 10.48%.
For COCC(C)NC(=O)c1cncn1-c1ccc(F)cc1 (stereo not drawn) the result was -2.565%.
For CN(C)C(CNc1ncccc1F)C1CC1 (stereo not drawn) the result was -3.032%.
For CSCCCN(C)C(=O)CN(C)S(C)(=O)=O the result was 5.226%.
For Cc1cnc(CCNC(=O)NCC(O)C2CC2)s1 (stereo not drawn) the result was -7.39%.
For CN(C)C(=O)CN1CCCC1c1ccc(F)cc1 (stereo not drawn) the result was 66.6%.
For CC(=O)c1ccc(S(=O)(=O)NC(CN)C2CC2)cc1 (stereo not drawn) the result was 9.237%.
For Cc1nc(CNC(=O)CC2=CCCCC2)no1 the result was 51.14%.
For Cc1ccc(C2CSCCN2)o1 (stereo not drawn) the result was -1.898%.